{"source": "patent US20190134039A1", "about": "“ANTIVIRAL JAK INHIBITORS USEFUL IN TREATING OR PREVENTING RETROVIRAL AND OTHER VIRAL INFECTIONS” (EMORY UNIVERSITY, priority 2011, published 2019)", "key": {"HIV-1LAI": {"system": "HIV-1LAI", "from_the_text": "PBM cells were isolated as follows: Lymphocytes were isolated from buffy coats derived from healthy donors obtained from Life South Laboratories (Dunwoody, Ga.). Activated lymphocytes were maintained for 72 hrs in medium that was supplemented with […] phytohemagglutinin (PHA) (Cape Cod associates, East Falmouth, Mass.). Media was comprised of RPMI media supplemented with 20% fetal calf serum, 1% penicillin/streptomyocin and 2% L-glutamine (Sigma Aldrich, San Jose, Calif.).\nPBM cell infections: Testing was performed in duplicate with at least 3 independent assays. Cells were incubated in RPMI medium (HyClone, Logan, Utah) containing HR-IL2 (26.5 units/ml) and 20% fetal calf serum. Infections were performed by adding HIV-1LA1 followed by a further incubation at 37° C., 5% CO2, 1 hr prior to addition of drugs. Assays were performed in 24 well plates (BD Biosciences, Franklin Lakes, N.J.). One ml of supernatant was collected after 5 days in culture and then centrifuged at 12,000 rpm for 2 hr at 4° C. in a Jouan Br43i (Thermo Electron Corp., Marietta, Ohio). The product of the RT assay was quantified using a Packard harvester and direct beta counter and the data were analyzed as previously described (Schinazi et al, 1990)."}, "[1]": {"settings": "calculated using Propidium Iodide toxicity values"}}, "note": "Where two headings read alike, the source gives them in different places.", "data": [{"molecule": "C[C@@H]1CCN(C(=O)CC#N)C[C@@H]1N(C)c1ncnc2[nH]ccc12", "note": "[Tofacitinib, 3-{(3R,4R)-4 methyl-3-[methyl-(7H-pyrrolo[2,3-d]pyrimidin-4-yl)-amino]-piperidin-1-yl}-3-oxo-propionitrile]", "values": [{"measurement": "TI for antiviral potency against acute HIV-1 infection in PBM cells versus toxicity", "setting": "HIV-1LAI; calculated using MTT assay toxicity values for PHA + IL-2 stimulated PBM cells", "value": 1.0}, {"measurement": "TI for antiviral potency against acute HIV-1 infection in PBM cells versus toxicity", "setting": "HIV-1LAI; calculated using MTT assay toxicity values for PHA stimulated PBM cells", "value": 8.0}, {"measurement": "TI for antiviral potency against acute HIV-1 infection in PBM cells versus toxicity", "setting": "HIV-1LAI; [1]", "value": ">100"}, {"measurement": "TI for antiviral potency against acute HIV-2 infection in PBM cells versus toxicity", "setting": "HIV-2; calculated using MTT assay toxicity values", "value": 18.5}, {"measurement": "TI for antiviral potency against acute HIV-2 infection in PBM cells versus toxicity", "setting": "HIV-2; [1]", "value": ">50"}]}]}
